Measured values from several laboratories, pooled; numbers as filed in NIAID ChemDB.

Shared fields: growth or infection tests; organism: HIV-1; cell line: TZM-bl; measure: EC50

ECn: concentration that inhibits the pathogen or its effect by n%. Conditions beyond the fields shown may differ between rows. Blank or dashed fields: not listed here.

compound | strain or isolate | mutations | read by | conditions | result
C[C@@H]1CCO[C@H]2Cn3cc(C(=O)NCc4ccc(F)cc4F)c(=O)c(O)c3C(=O)N12 |  | L74I/V75I | luciferase / luminescence |  | 0.0016 µM
O=[N+]([O-])c1ccccc1/C=C/c1cc(Cl)c2cc(Cl)ccc2n1 | UG070 |  | luminescence |  | 52.16 µM
COc1cccc(-n2nc(-c3ccc(C)[nH]c3=O)cc2-c2ccccc2)c1 | UG070 |  | luminescence |  | >280 µM
Nc1ccn([C@@H]2CS[C@H](CO)O2)c(=O)n1 | NL4-3 | M184I-R263K | luciferase |  | 0.6442 µM
Cc1cn(CC(=O)Nc2ccccn2)c(=O)[nH]c1=O | UG070 |  | luciferase |  | 29.6 µM
COc1ccc(/C=C/c2cc(Cl)c3cc(Cl)ccc3n2)c(OC)c1 | UG070 |  | luminescence |  | 1.11 µM
COc1ccnc2[nH]cc(C(=O)C(=O)N3C4CCCC3CN(C(=O)c3ccccc3)C4)c12 | AC10 |  | luciferase |  | 1.1 µM
Cc1ccc(-c2cc(-c3ccccc3)n(-c3ccc(C(C)C)cc3)n2)c(=O)[nH]1 | UG070 |  | luminescence |  | 18.21 µM
CC(=O)Oc1ccc(CCC(=O)CCc2ccc(NC(=O)c3ccc([N+](=O)[O-])cc3)cc2)cc1OC(C)=O | BaL |  | luciferase |  | 16.83 µM
Cc1cc(C)cc(-n2nc(-c3ccc(C)[nH]c3=O)cc2-c2ccccc2)c1 | UG070 |  | luminescence |  | >563 µM
O=C1NC(=NCc2ccc(Cl)cc2)S/C1=C\c1ccc(-c2ccc(C(=O)O)c(O)c2)o1 | NL4-3 |  | β-galactosidase |  | 3.1 µM
COC[C@@H](c1ccc(C(F)(F)F)cc1)N1CCN(C2(C)CCN(C(=O)c3c(C)ncnc3C)CC2)C[C@@H]1C | R14/S |  |  |  | 0.0096 µM
O=C(Cn1ccc(=O)[nH]c1=O)Nc1ccccn1 | ADA5 |  | luciferase |  | 178 µM
Clc1cc(/C=C/c2ccc(OCc3ccccc3)cc2)nc2ccccc12 | UG070 |  | luminescence |  | 77.99 µM
Cc1cn([C@H]2C[C@H](N=[N+]=[N-])[C@@H](CO)O2)c(=O)[nH]c1=O | VB59 |  | luminescence |  | 0.03 µM
C#C[C@@]1(COP(=O)(O)OP(=O)(O)OP(=O)(O)O)C=C[C@H](n2cc(C)c(=O)[nH]c2=O)O1 | NL4-3 |  | luciferase |  | 0.45 µM
O=C(/C=C/c1ccc(O)c(O)c1)CCc1ccc(NC(=O)c2ccccc2)cc1 | BaL |  | luciferase |  | >50 µM
COc1ccc(/C=C/c2cc(Cl)c3ccccc3n2)c(OC)c1 | VB59 |  | entry / luminescence |  | 4.21 µM
Cc1ccc(-c2cc(-c3ccccc3)n(-c3ccc(Cl)cc3)n2)c(=O)[nH]1 | VB59 |  | luminescence |  | 137 µM
C[C@H](Cn1cnc2c(N)ncnc21)OCP(=O)(O)O |  | NL/2ATZ |  |  | 7.5 µM
COc1cccc(/C=C/c2cc(Cl)c3cc(Cl)ccc3n2)c1OC | UG070 |  | luminescence |  | 62.46 µM
COc1ccc(C(=O)Nc2ccc(CCC(=O)CCc3ccc(OC(C)=O)c(OC(C)=O)c3)cc2)cc1 | BaL |  | luciferase |  | 30.63 µM
O=C(CCC(=O)n1cnc2c([N+](=O)[O-])cccc21)n1cnc2c([N+](=O)[O-])cccc21 | IIIB |  | luciferase |  | 17.1 µM
COc1cc(Br)ccc1/C=C/c1cc(Cl)c2cc(Cl)ccc2n1 | UG070 |  | luminescence |  | 8.56 µM
Cc1ccc(-c2cc(-c3ccccc3)n(-c3ccccc3)n2)c(=O)[nH]1 | UG070 |  | luminescence |  | 180 µM
O=C1NC(=NCCc2ccc(F)cc2)S/C1=C\c1ccc(-c2ccc(C(=O)O)c(O)c2)o1 |  |  | β-galactosidase | pseudotyped | 5.6 µM
O=C(Cn1cnc2ccccc21)Nc1ccccn1 | UG070 |  | luciferase |  | 389 µM
Cc1ccc(-c2cc(-c3ccccc3)n(-c3ccccc3F)n2)c(=O)[nH]1 | UG070 |  | luminescence |  | 108 µM
COc1ccc(C(=O)Nc2ccc(CCC(=O)CCc3ccc(O)c(O)c3)cc2)cc1 | BaL |  | luciferase |  | >200 µM
Clc1ccc2nc(/C=C/c3ccc(-c4ccccc4)cc3)cc(Cl)c2c1 | UG070 |  | luminescence |  | 87.44 µM
O=C1NC(=NCc2ccc(F)cc2)S/C1=C\c1ccc(-c2ccc(C(=O)O)c(O)c2)o1 | NL4-3 |  | β-galactosidase |  | 1.6 µM
Cc1ccc(-c2cc(-c3ccccc3)n(-c3ccc(C(C)(C)C)cc3)n2)c(=O)[nH]1 | UG070 |  | luminescence |  | 16.21 µM
O=C1NC(=Nc2ccc(F)c(Cl)c2)S/C1=C\c1ccc(-c2ccc(C(=O)O)c(O)c2)o1 | NL4-3 |  | β-galactosidase |  | 1 µM
O=C(CCC(=O)n1cnc2ccccc21)n1cnc2ccccc21 | UG070 |  | luciferase |  | 5.28 µM
COc1ccc(/C=C/c2cc(Cl)c3ccccc3n2)cc1 | VB59 |  | luminescence |  | 7.13 µM
Cc1ccc(-c2ccc(NC(=O)N3CCC4(CCO4)CC3)cc2)cc1 | X1632 |  | luminescence | pseudotyped | >30 µM
O=C1NC(=NCCc2ccccc2)S/C1=C\c1ccc(-c2ccc(C(=O)O)c(O)c2)o1 | AD8 |  | β-galactosidase |  | 1.5 µM
Cc1ccnc2c1NC(=O)c1cccnc1N2C1CC1 | A17 | K103N | p24 / ELISA |  | >10 µM
COc1ccnc2[nH]cc(C(=O)C(=O)N3CCN(C(=O)c4ccccc4)C[C@H]3C)c12 | AC10 |  | luciferase |  | 0.02 µM
CCC(=O)c1ccc(F)c([C@@H]2C[C@@H]2NC(=O)Nc2ccc(C#N)cn2)c1O | LAI | NNRTI-resistant (RT F227C) | β-galactosidase / luminescence |  | 0.01001 µM
O=C(CCC(=O)Nc1ccc(Br)cn1)Nc1ccc(Br)cn1 | VB59 |  | luciferase |  | 98.13 µM

A second listing of 4 rows from above:

compound,strain or isolate,mutations,read by,conditions,result
Cc1ccc(-c2cc(-c3ccccc3)n(-c3ccc(Cl)cc3)n2)c(=O)[nH]1,VB59,,luminescence,,137 µM
Cc1ccnc2c1NC(=O)c1cccnc1N2C1CC1,A17,K103N,p24 / ELISA,,>10 µM
O=C(CCC(=O)Nc1ccc(Br)cn1)Nc1ccc(Br)cn1,VB59,,luciferase,,98.13 µM
COc1ccnc2[nH]cc(C(=O)C(=O)N3CCN(C(=O)c4ccccc4)C[C@H]3C)c12,AC10,,luciferase,,0.02 µM